Measured values from several laboratories, pooled; numbers as filed in NIAID ChemDB.

Shared fields: growth or infection tests; species: HIV-1; cells: PBMC; endpoint: fold resistance

Fold resistance has wild type as its base. An empty or dashed field is not shown. Rows are shuffled and stem from different studies.

compound,strain or isolate,mutations,method,result
Cc1cn([C@H]2C[C@H](N=[N+]=[N-])[C@@H](CO)O2)c(=O)[nH]c1=O,-,RT-L74V,p24,1.5
Cc1cn([C@H]2C=C[C@@H](CO)O2)c(=O)[nH]c1=O,HxB2D(RT-D67G),RT-D67G,p24,0.833
Cc1c(O)cccc1C(=O)N[C@@H](CSc1ccccc1)[C@H](O)CN1C[C@H]2CCCC[C@H]2C[C@H]1C(=O)NC(C)(C)C,Clinical isolate,PR-L10I K43T M46L I54L L63P A71T V82A L90M Q92K,p24,17.8
COc1ccc(S(=O)(=O)N(CC(C)C)C[C@@H](O)[C@H](Cc2ccc(OC)c(Cl)c2)NC(=O)O[C@H]2CO[C@H]3OCC[C@H]32)cc1,NL4-3,L10F V32I M46I I54M A71V I84V,p24 / luminescence,6
Nc1nc(=O)n([C@@H]2C[Se][C@H](CO)O2)cc1F,BRU(RT-M184V),RT-M184V,RT activity,>455
Nc1nc(NC2CC2)c2ncn([C@H]3C=C[C@@H](CO)C3)c2n1,M184V,RT-M184V,p24,3.5
C[C@@H](NC(=S)Nc1ccc(Br)cn1)c1cccc2ccccc12,NNRTI-resistant (RT Y181C K103N) A17V,RT-Y181C K103N,p24,191
Cc1ccnc2c1NC(=O)c1cccnc1N2C1CC1,RT multidrug-resistant (L74V V106A T215Y),RT-L74V V106A T215Y,p24,17.2
Cc1cn([C@H]2C[C@H](F)[C@@H](CO)O2)c(=O)[nH]c1=O,GW908 AZT-resistant (RT V75I/F77L/F116Y/Q151M),RT-V75I F77L F116Y Q151M,antigen,0.6
S=C(NCCc1ccc(Br)cc1)Nc1ccc(Br)cn1,A17,RT-Y181C,p24,14.3
O=c1[nH]cnc2c1ncn2[C@H]1CC[C@@H](CO)O1,XM-AZT-resistant,RT-M41L D67N K70R T215Y K219Q,p24,0.3
CCCCN1C(=O)C(CC2CCCCC2)NC(=O)C12CCN(Cc1ccc3c(c1)OCCO3)CC2,TM,MDR,p24,>25
C[C@H]1O[C@@H]2OCCC[C@@H]2[C@@H]1OC(=O)N[C@@H](Cc1ccccc1)[C@H](O)CN1C[C@H]2CCCC[C@H]2C[C@H]1C(=O)NC(C)(C)C,MM,PR-L10I K43T M46I I54V L63P A71V V82A L90M Q92K,p24,>32
S=C(NCCc1ccccn1)Nc1ccc(Br)cn1,NRTI resistant (RT L74V M41L V106A T215Y) MDR,RT-L74V M41L V106A T215Y,p24,2.86
Nc1ccn([C@H]2O[C@@H](CO)C=C2F)c(=O)n1,3TC-resistant (RT M184V),RT-M184V,-,>100
Cc1cn([C@H]2C[C@H](N=[N+]=[N-])[C@@H](CO)O2)c(=O)[nH]c1=O,MVP5180 (RT A98G K103R),RT-A98G K103R,-,1
Cc1ccnc2c1NC(=O)c1cccnc1N2C1CC1,A17,RT-K103N Y181C,-,>2940
Nc1nc(NC2CC2)c2ncn([C@H]3C=C[C@@H](CO)C3)c2n1,-,MDR769,p24,15
Nc1ccn([C@H]2CO[C@@H](CO)S2)c(=O)n1,HXB2D (RT-M184V),RT-M184V,p24,30
Fc1ccccc1CCNC(=S)Nc1ccc(Br)cn1,NNRTI-resistant (RT Y181C K103N) A17V,RT-Y181C K103N,p24,41000
Cc1csc(NC(=S)N[C@H](C)c2cccc3ccccc23)n1,A17,RT-Y181C,p24,13.2
S=C(NCCC1=CCCCC1)Nc1ccc(Cl)cn1,RT-MDR(RT-V106A),RT-V106A,-,0.333
CCNc1cccnc1N1CCN(C(=O)c2cc3cc(OC)ccc3[nH]2)CC1,BaL,RT-P236L,p24,35.6
CC(C)(C)NC(=O)[C@@H]1C[C@@H]2CCCC[C@@H]2CN1C[C@@H](O)[C@H](Cc1ccccc1)NC(=O)[C@H](CC(N)=O)NC(=O)c1ccc2ccccc2n1,Clinical isolate,PR-L10I K43T M46L I54L L63P A71T V82A L90M Q92K,p24,31
Cc1cn([C@H]2C[C@H](N=[N+]=[N-])[C@@H](CO)O2)c(=O)[nH]c1=O,XM-T69SSS,RT-T69SSS L210W T215Y,p24,470
Cc1ccccc1CNC(=O)[C@H]1N(C(=O)[C@@H](O)[C@H](Cc2ccccc2)NC(=O)c2cccc(O)c2C)CSC1(C)C,052-52 PI-resistant,PR-L10R M46I L63P A71V V82T I84V,RT activity,1
Cc1cn([C@H]2C[C@H](N=[N+]=[N-])[C@@H](CO)O2)c(=O)[nH]c1=O,Recombinant,RT-V75I F77L Q151M,p24,0.02
S=C(NCCCn1ccnc1)Nc1nccs1,A17,RT-K103N Y181C,p24,>100000
Cc1cn([C@H]2C[C@H](N=[N+]=[N-])[C@@H](CO)O2)c(=O)[nH]c1=O,410 clinical isolates AZT-resistant,-,p24,22
S=C(NCCc1ccccn1)Nc1ccc(Br)cn1,A17,RT-K103N Y181C,-,>14300
CC(C)Nc1cccnc1N1CCN(C(=O)c2cc3cc(NS(C)(=O)=O)ccc3[nH]2)CC1,NRTI resistant (RT Y181C) A17,RT-Y181C,p24,11100
COc1cccc(C[C@H](NC(=O)c2cccc(O)c2C)[C@H](O)C(=O)N2CSC(C)(C)[C@H]2C(=O)NCc2c(C)cccc2C)c1,052-52 PI-resistant,PR-L10R M46I L63P A71V V82T I84V,RT activity,<1
C[C@@H](NC(=S)Nc1ccc(Cl)cn1)c1cccc2ccccc12,A17,RT-Y181C,p24,8.6
O=c1[nH]cnc2c1ncn2[C@H]1CC[C@@H](CO)O1,Recombinant,RT-V75I F77L Q151M,p24,1
C[C@@H](CNC(=S)Nc1ccc(Br)cn1)c1ccccc1,NNRTI-resistant (RT Y181C K103N) A17V,RT-Y181C K103N,p24,366
Cc1ccc(NC(=S)N[C@H](C)c2cccc3ccccc23)nc1,A17V(RT-K103N Y181C),RT-K103N Y181C,p24,49.4
Nc1nc(NC2CC2)c2ncn([C@H]3C=C[C@@H](CO)O3)c2n1,BRU PITT.(RT-L74V),RT-L74V,cytopathic effect / MTT,2
Nc1nc(=O)n([C@@H]2CO[C@H](CO)S2)cc1F,HXB2D (RT-K65R),RT-K65R,p24,3.83
C[C@@H]1O[C@H]2OCCC[C@H]2[C@H]1OC(=O)N[C@@H](Cc1ccccc1)[C@H](O)CN1C[C@H]2CCCC[C@H]2C[C@H]1C(=O)NC(C)(C)C,TM,PR-L10I K14R R41K M46I I54V L63P A71V V82A L90M I93L,p24,>4
CC(C)Nc1cccnc1N1CCN(C(=O)c2cc3cc(NS(C)(=O)=O)ccc3[nH]2)CC1,472 clinical isolates AZT-resistant,-,p24,>100
CC(C)CN(C[C@@H](O)[C@H](Cc1ccccc1)NC(=O)O[C@H]1CCOC1)S(=O)(=O)c1ccc(N)cc1,MM,PR-L10I K43T M46I I54V L63P A71V V82A L90M Q92K,p24,27
CC[C@]1(c2ccccc2)Oc2cccnc2-n2cccc2C1=O,Resistant (MDR) isolate,RT-M41L K103N T215Y,RT activity,85
C[C@@H](CNC(=S)Nc1ccccn1)c1ccccc1,NNRTI-resistant (RT Y181C K103N) A17V,RT-Y181C K103N,p24,19
CC(C)Nc1cccnc1N1CCN(C(=O)c2cc3cc(NS(C)(=O)=O)ccc3[nH]2)CC1,BaL,RT-V106A,p24,70
CC(C)CN(C[C@@H](O)[C@H](Cc1ccccc1)NC(=O)O[C@H]1CCOC1)S(=O)(=O)c1ccc(N)cc1,052-52 PI-resistant,PR-L10R M46I L63P A71V V82T I84V,RT activity,21
CC(C)CN(C[C@@H](O)[C@H](Cc1ccccc1)NC(=O)O[C@H]1CCOC1)S(=O)(=O)c1ccc(N)cc1,Clinical isolate,PR-L10I K43T M46L I54L L63P A71T V82A L90M Q92K,p24,26.8
C[C@@H](CNC(=S)Nc1ccc(Cl)cn1)c1ccccc1,NNRTI-resistant (RT Y181C K103N) A17V,RT-Y181C K103N,p24,>500
COc1ccc(OC)c(CCNC(=S)Nc2ccc(Br)cn2)c1,A17,RT-Y181C,p24,>140
CC(C)Nc1cccnc1N1CCN(C(=O)c2cc3cc(NS(C)(=O)=O)ccc3[nH]2)CC1,RT-MDR(RT-V106A),RT-V106A,-,44.4
Cc1csc(NC(=S)N[C@H](C)c2cccc3ccccc23)n1,NNRTI-resistant (RT Y181C) A17,RT-Y181C,p24,145
Cc1cn([C@H]2C[C@H](N=[N+]=[N-])[C@@H](CO)O2)c(=O)[nH]c1=O,RTMF(RT-T215Y),RT-T215Y,RT activity,9
O=c1[nH]cnc2c1ncn2[C@H]1CC[C@@H](CO)O1,HXB2D (RT-L74V),RT-L74V,p24 / ELISA,4.03
Cc1csc(NC(=S)N[C@H](C)c2ccccc2)n1,NNRTI-resistant (RT Y181C K103N) A17V,RT-Y181C K103N,p24,196
Cc1c(O)cccc1C(=O)N[C@@H](CSc1ccccc1)[C@H](O)CN1C[C@H]2CCCC[C@H]2C[C@H]1C(=O)NC(C)(C)C,JSL,MDR,p24,>71
C[C@H](CNC(=S)Nc1ccc(Cl)cn1)c1ccccc1,NNRTI-resistant (RT Y181C K103N) A17V,RT-Y181C K103N,p24,>2500
C[C@@H](CNC(=S)Nc1ccc(Cl)cn1)c1ccccc1,NNRTI-resistant (RT Y181C K103N) A17V,RT-Y181C K103N,p24,530
Cc1cn([C@H]2C[C@H](N=[N+]=[N-])[C@@H](CO)O2)c(=O)[nH]c1=O,JSL,MDR,p24,28
CC(C)=CCN1Cc2cccc3[nH]c(=S)n(c23)C[C@@H]1C,-,RT-E89G,p24,3.6
Nc1ccn([C@@H]2CO[C@H](CO)S2)c(=O)n1,HXB2D (RT-K65R),RT-K65R,p24,2.5
Cc1cn([C@H]2C[C@H](N=[N+]=[N-])[C@@H](CO)O2)c(=O)[nH]c1=O,RT-M184V,RT-E89G,p24,0.5
Cc1ccc(CCNC(=S)Nc2ccc(Br)cn2)cc1,A17,RT-Y181C,p24,10
COc1ccc(C[C@H](NC(=O)c2cccc(O)c2C)[C@H](O)C(=O)N2CSC(C)(C)[C@H]2C(=O)NCc2ccccc2C)cc1,1002-60 PI-resistant,PR-L10I M46I I54V L63P V82F L90M,RT activity,3
Nc1nc2c(ncn2[C@H]2CO[C@@H](CO)O2)c(=O)[nH]1,3TC-resistant (RT M184V) Clinical isolate,RT-M184V,p24,1
Cc1cn([C@H]2C[C@H](N=[N+]=[N-])[C@@H](CO)O2)c(=O)[nH]c1=O,G910-11-(RT-T215Y/F) NRTI resistant,RT-T215Y/F,p24,50
Cc1cccc(C)c1OCC(=O)N[C@@H](Cc1ccccc1)[C@@H](O)C[C@H](Cc1ccccc1)NC(=O)[C@H](C(C)C)N1CCCNC1=O,1002-60 PI-resistant,PR-L10I M46I I54V L63P V82F L90M,RT activity,441
Fc1ccccc1CCNC(=S)Nc1ccc(Br)cn1,A17,RT-K103N Y181C,p24,>35000
C[C@@H](NC(=S)Nc1ccc(Br)cn1)c1cccc2ccccc12,RT multidrug-resistant (L74V V106A T215Y),RT-L74V V106A T215Y,p24,1
Cc1csc(NC(=S)NC[C@H](C)c2ccccc2)n1,NNRTI-resistant (RT Y181C) A17,RT-Y181C,p24,115
O=c1[nH]cnc2c1ncn2[C@H]1CC[C@@H](CO)O1,TM,MDR,p24,5

Repeating the final 5 entries:

compound	strain or isolate	mutations	method	result
Cc1cccc(C)c1OCC(=O)N[C@@H](Cc1ccccc1)[C@@H](O)C[C@H](Cc1ccccc1)NC(=O)[C@H](C(C)C)N1CCCNC1=O	1002-60 PI-resistant	PR-L10I M46I I54V L63P V82F L90M	RT activity	441
Fc1ccccc1CCNC(=S)Nc1ccc(Br)cn1	A17	RT-K103N Y181C	p24	>35000
C[C@@H](NC(=S)Nc1ccc(Br)cn1)c1cccc2ccccc12	RT multidrug-resistant (L74V V106A T215Y)	RT-L74V V106A T215Y	p24	1
Cc1csc(NC(=S)NC[C@H](C)c2ccccc2)n1	NNRTI-resistant (RT Y181C) A17	RT-Y181C	p24	115
O=c1[nH]cnc2c1ncn2[C@H]1CC[C@@H](CO)O1	TM	MDR	p24	5